PubChem BioAssay AID1224833, University of Georgia – 2016

- Screen: 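Host factors restraining rotavirus as candidate antiviral genes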 (primary screen)
- Cells: monkey MA104 kidney cells
- Reagent: siRNA pool against human genes, 50 nM
- Time to read-out: 48 h knock-down before infection; read 24 h after infection
- Challenge: infection with rotavirus strain RV3 two days after transfection; infectious dose for this stage not given
- Read-out: 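Rotavirus antigen per well by fluorescent immunoassay, normalised to non-targeting control wells on each plate and given as a standard z-score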
- Reading the numbers: z-score vs non-targeting control: higher = more rotavirus replication than with non-targeting control
- Hit rule: In these data the active calls have z-score vs non-targeting control at about -1 or lower, or at about 1 or higher
- Meaning of the calls: active = z-score beyond 1 either way; inactive = z-score within 1 of zero
The whole screen tested about 12,000 reagents; this is an unselected part. About 5,600 of them (46%) were called active. 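Active calls cover z-scores past 1 in both directions, so they include lowered as well as raised rotavirus replication.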 A number with no mark means an inactive call.

LRFN2 (GeneID 57497) gave z-score vs non-targeting control -0.515.
Against BTNL2 (GeneID 56244), the entry reads z-score vs non-targeting control -2.33 (active).
With knock-down of ACOT13 (GeneID 55856), the screen gave z-score vs non-targeting control -0.938.
Against GATD3 (GeneID 8209) the deposit lists z-score vs non-targeting control -0.584.
Against P4HA1 (GeneID 5033) the deposit lists z-score vs non-targeting control 1.74 (active).
PSMB7 (GeneID 5695) showed z-score vs non-targeting control 1.01 (active).
Against TRIP10 (GeneID 9322), the entry reads z-score vs non-targeting control 1.75 (active).
Knock-down of FCHO1 (GeneID 23149) came out at: z-score vs non-targeting control -0.0678.
Depletion of XPR1 (GeneID 9213) gave: z-score vs non-targeting control 1.63 (active).
With knock-down of OR4C11 (GeneID 219429), the record shows z-score vs non-targeting control -0.203.
FAM161A (GeneID 84140) scored z-score vs non-targeting control -0.695.
After knock-down of SLC31A2 (GeneID 1318), the screen gave z-score vs non-targeting control 0.848.
With knock-down of DDX53 (GeneID 168400) the results were z-score vs non-targeting control -0.128.
Knock-down of TBCEL (GeneID 219899) came out at: z-score vs non-targeting control 0.712.
Depletion of ADGRL4 (GeneID 64123) resulted in: z-score vs non-targeting control -0.879.
For SURF4 (GeneID 6836), the entry reads z-score vs non-targeting control 0.271.
For CD33 (GeneID 945) the deposit lists z-score vs non-targeting control -0.321.
LRP1 (GeneID 4035) gave z-score vs non-targeting control -1.08 (active).
After knock-down of KTN1 (GeneID 3895), the record shows z-score vs non-targeting control -0.96.
Silencing of SMIM14 (GeneID 201895) gave: z-score vs non-targeting control -1.83 (active).
Against REEP1 (GeneID 65055), the entry reads z-score vs non-targeting control -0.607.
HBQ1 (GeneID 3049) showed z-score vs non-targeting control -1.88 (active).
After knock-down of OR51Q1 (GeneID 390061), the screen gave z-score vs non-targeting control -1.6 (active).
Against OR7A17 (GeneID 26333), the values are z-score vs non-targeting control -1.21 (active).
Knock-down of ATAT1 (GeneID 79969) resulted in: z-score vs non-targeting control -0.99.
ELOVL5 (GeneID 60481) scored z-score vs non-targeting control -0.729.
With knock-down of MED31 (GeneID 51003), the screen gave z-score vs non-targeting control -1.42 (active).
PUDP (GeneID 8226) showed z-score vs non-targeting control 0.544.
After knock-down of GSTA2 (GeneID 2939), the record shows z-score vs non-targeting control 1.75 (active).
Silencing of DAOA (GeneID 267012) resulted in: z-score vs non-targeting control 0.76.
With knock-down of DEFB134 (GeneID 613211) the results were z-score vs non-targeting control 1.05 (active).
After knock-down of ZBTB17 (GeneID 7709), the record shows z-score vs non-targeting control -2.33 (active).
With knock-down of SPINT1 (GeneID 6692), the record shows z-score vs non-targeting control 1.22 (active).
After knock-down of CCDC88C (GeneID 440193), the record shows z-score vs non-targeting control -0.0759.
For TLR10 (GeneID 81793), the entry reads z-score vs non-targeting control -0.539.
Knock-down of ICE2 (GeneID 79664) resulted in: z-score vs non-targeting control 1.21 (active).
With knock-down of LY6K (GeneID 54742) the results were z-score vs non-targeting control -0.579.
Against NPRL2 (GeneID 10641), the values are z-score vs non-targeting control 0.144.
After knock-down of INS (GeneID 3630), the record shows z-score vs non-targeting control 0.179.
TIMP2 (GeneID 7077) showed z-score vs non-targeting control -1.4 (active).
CDH1 (GeneID 999) gave z-score vs non-targeting control -0.353.
Against TSHZ2 (GeneID 128553) the deposit lists z-score vs non-targeting control -1.05 (active).
For CIAO2B (GeneID 51647) the deposit lists z-score vs non-targeting control 0.682.
Depletion of FAM177B (GeneID 400823) came out at: z-score vs non-targeting control 1.63 (active).
EML2 (GeneID 24139) showed z-score vs non-targeting control -1.6 (active).
With knock-down of BANF2 (GeneID 140836), the screen gave z-score vs non-targeting control -1.85 (active).
Depletion of QARS1 (GeneID 5859) came out at: z-score vs non-targeting control -1.62 (active).
Knock-down of ZNF80 (GeneID 7634) came out at: z-score vs non-targeting control -1.16 (active).
NAA11 (GeneID 84779) gave z-score vs non-targeting control 2.03 (active).
After knock-down of CLU (GeneID 1191), the record shows z-score vs non-targeting control -0.721.
After knock-down of UBXN2A (GeneID 165324), the screen gave z-score vs non-targeting control -0.871.
Knock-down of SULT1A4 (GeneID 445329) came out at: z-score vs non-targeting control 0.771.
Knock-down of SS18 (GeneID 6760) resulted in: z-score vs non-targeting control -1.31 (active).
ECI2 (GeneID 10455) showed z-score vs non-targeting control -2.08 (active).
SLC44A2 (GeneID 57153) showed z-score vs non-targeting control 2.86 (active).
With knock-down of PACRG (GeneID 135138) the results were z-score vs non-targeting control -1.07 (active).
CD1D (GeneID 912) gave z-score vs non-targeting control 0.822.
Against NFAM1 (GeneID 150372) the deposit lists z-score vs non-targeting control -0.644.
After knock-down of BARX1 (GeneID 56033), the record shows z-score vs non-targeting control -1.97 (active).
With knock-down of PRB4 (GeneID 5545) the results were z-score vs non-targeting control -1.97 (active).

Single entries from above:
Under “z-score vs non-targeting control”, FAM161A (GeneID 84140) is entered as -0.695
GATD3 (GeneID 8209), z-score vs non-targeting control → -0.584
For “z-score vs non-targeting control”, TSHZ2 (GeneID 128553) has -1.05 (active)
UBXN2A (GeneID 165324), z-score vs non-targeting control = -0.871
For “z-score vs non-targeting control”, MED31 (GeneID 51003) has -1.42 (active)
P4HA1 (GeneID 5033), z-score vs non-targeting control → 1.74 (active)
